Anti-infective test results gathered from many reports (values: NIAID ChemDB through PubChem).

All rows: whole-cell or culture tests; organism: Hepatitis C virus; read-out: EC50

Rows are shuffled and stem from different studies. An empty or dashed field is not shown. a–b is a range or a potency band. ECn is the concentration giving n% inhibition of infection, replication or growth.

SMILES | strain or isolate | method | result
CC1(C)CC(=O)C2=C(C1)Nc1c(O)cccc1N(C(=O)OCC(=O)O)C2c1ccc(OCc2ccccc2)cc1Cl | 1b | luciferase / reporter gene / replicon | 57.62 µM
CS(=O)(=O)NC(=O)c1c(-c2ccc[nH]c2=O)c2c3occc3ccc2n1Cc1ccccc1Cl | - | replicon | <0.5 µM
CC1(Oc2nc(NCc3ccc(S(N)(=O)=O)cc3)nc3ccc(-c4ccc(F)cc4)nc23)CC1 | - | replicon | <0.1 µM
CC1CCC(C(=O)N(c2cc(-c3ccc(NC(=O)c4cscn4)cc3)sc2C(=O)[O-])C(C)C)CC1.[NH3+]CCO | 1b | replicon | <0.5 µM
CC1(C)CC(=O)C2=C(C1)Nc1c(O)cccc1N(C(=O)NCc1ccoc1)C2c1ccc(Cl)cc1Cl | 1b | luciferase / reporter gene / replicon | 7.28 µM
CCOc1nc(NCc2cc(F)cc(F)c2)nc2ccc(-c3ccc(F)cc3)nc12 | - | replicon | <0.1 µM
NC(=O)COc1ccc2c(c1)S(=O)(=O)N=C(c1c(O)c3cc(F)ccc3n(CCC3CC3)c1=O)N2 | 1b 7601 | replicon | 0.095 µM
CN(C)C(=O)CCC(=O)N1c2cccc(O)c2NC2=C(C(=O)CC(C)(C)C2)C1c1ccc(OCc2ccccc2)cc1Cl | 1b | luciferase / reporter gene / replicon | 5.36 µM
Nc1noc2ccc(Cn3c(C(=O)O)c(-c4ccc[nH]c4=O)c4c5occc5c(F)cc43)cc12 | - | replicon | <0.5 µM
CC1(C)CC(=O)C2=C(C1)Nc1c(O)cccc1N(C(=O)C1COc3ccccc3O1)C2c1ccc(OCc2ccccc2)cc1F | 1b | luciferase / reporter gene / replicon | 1.13 µM
CC1CCC(C(=O)N(c2cc(-c3ccc(NC(=O)c4ccco4)nc3)sc2C(=O)O)C(C)C)CC1 | 1b | replicon | <0.5 µM
CC1(C)CC(=O)C2=C(C1)Nc1c(O)cccc1NC2c1c(F)cc(OCc2ccccc2)cc1F | 1b | luciferase / reporter gene / replicon | 3.37 µM
CS(=O)(=O)Nc1cccc(S(=O)(=O)NC(=O)c2c(-c3ccc[nH]c3=O)c3c4ccoc4ccc3n2Cc2ccc(F)cc2F)c1 | - | replicon | >1.5 µM
CC1CCC(C(=O)N(c2cc(-c3ccc(NC(=O)c4cn(C)cn4)cc3)sc2C(=O)O)C2CCC2)CC1 | 1b | replicon | <0.5 µM
CCOc1nc(NCc2ccc(-n3cncn3)cc2)nc2ccc(-c3ccc(F)cc3)nc12 | - | replicon | <0.1 µM
CC(=O)N1c2cccc(O)c2NC2=C(C(=O)CC(C)(C)C2)C1c1ccc(Oc2ccccc2Cl)cc1Cl | 1b | luciferase / reporter gene / replicon | 9.43 µM
Nc1cc(Cn2c(C(=O)NS(=O)(=O)c3ccccc3)c(-c3ccc[nH]c3=O)c3c4ccccc4ccc32)ccn1 | - | replicon | 1–10 µM
NS(=O)(=O)c1ccc(CNc2nc(Nc3cccc(F)c3)c3nc(-c4ccc(F)cc4)ccc3n2)cc1 | - | replicon | <0.1 µM
Nc1cc(Cn2c(C(=O)O)c(-c3ccc[nH]c3=O)c3c4scnc4ccc32)ccn1 | - | replicon | >1.5 µM
Cc1cnccc1C(=O)Nc1ccc(-c2cc(N(C(=O)C3CCC(C)CC3)C(C)C)c(C(=O)O)s2)cc1 | 1a | replicon | >0.5 µM
N#Cc1cccc(-c2ccc3nc(NCc4ccc(S(N)(=O)=O)cc4)nc(NCC(F)(F)F)c3n2)c1 | - | replicon | <0.1 µM
CC1(C)CC(=O)C2=C(C1)Nc1c(O)cccc1N(C(=O)c1ccco1)[C@H]2c1ccc(OCc2ccccc2)cc1F | 1b | luciferase / reporter gene / replicon | 1.28 µM
Cc1cccc(Cn2c(C(=O)O)c(-c3ccc[nH]c3=O)c3c4occc4c(F)cc32)c1F | - | replicon | <0.5 µM
CC1CCC(C(=O)N(c2cc(-c3ccc(NC(=O)c4nccn4C)cc3)sc2C(=O)O)C(C)C)CC1 | 1a | replicon | <0.5 µM
CC(=O)N1c2cccc(O)c2NC2=C(C(=O)CC(C)(C)C2)C1c1ccc(OCc2ccccc2)cc1C | 1b | luciferase / reporter gene / replicon | 2.88 µM

2 of the rows above, restated:

Cc1cccc(Cn2c(C(=O)O)c(-c3ccc[nH]c3=O)c3c4occc4c(F)cc32)c1F ; method: replicon ; result: <0.5 µM
CC1CCC(C(=O)N(c2cc(-c3ccc(NC(=O)c4cscn4)cc3)sc2C(=O)[O-])C(C)C)CC1.[NH3+]CCO ; strain or isolate: 1b ; method: replicon ; result: <0.5 µM